Legend:
[1] = test system: Severe fever with thrombocytopenia syndrome virus; experiment: Antiviral activity against SFTSV infected in mouse harboring IFNAR1tm1Agt assessed as log reduction in viral copy number in lung at 5 mg/kg, po qd treated for 7 days by RT-qPCR analysis; settings: time 7 day
[2] = Selectivity index, ratio of CC50 for cytotoxicity against human A549 cells to EC50 for antiviral activity against LCMV infected in human A549 cells assessed as reduction in viral replication
[3] = test system: Severe fever with thrombocytopenia syndrome virus; experiment: Antiviral activity against SFTSV infected in mouse harboring IFNAR1tm1Agt assessed as log reduction in viral copy number in heart at 5 mg/kg, po qd treated for 7 days by RT-qPCR analysis; settings: time 7 day
[4] = test system: Severe fever with thrombocytopenia syndrome virus; experiment: Antiviral activity against SFTSV infected in mouse harboring IFNAR1tm1Agt assessed as log reduction in viral copy number in liver at 10 mg/kg, po qd treated for 7 days by RT-qPCR analysis; settings: time 7 day
[5] = test system: Severe fever with thrombocytopenia syndrome virus; experiment: Antiviral activity against SFTSV infected in mouse harboring IFNAR1tm1Agt assessed as log reduction in viral copy number in lung at 10 mg/kg, po qd treated for 7 days by RT-qPCR analysis; settings: time 7 day
[6] = test system: Severe fever with thrombocytopenia syndrome virus; experiment: Antiviral activity against SFTSV infected in mouse harboring IFNAR1tm1Agt assessed as log reduction in viral copy number in spleen at 5 mg/kg, po qd treated for 7 days by RT-qPCR analysis; settings: time 7 day
[7] = test system: Severe fever with thrombocytopenia syndrome virus; experiment: In vivo antiviral activity against SFTSV infected in mouse harboring IFNAR1tm1Agt assessed as animal survival rate at 2.5 mg/kg, po qd treated for 7 days relative to control; settings: time 7 day
[8] = test system: Severe fever with thrombocytopenia syndrome virus; experiment: Antiviral activity against SFTSV infected in mouse harboring IFNAR1tm1Agt assessed as log reduction in viral copy number in lung at 2.5 mg/kg, po qd treated for 7 days by RT-qPCR analysis; settings: time 7 day
[9] = test system: Severe fever with thrombocytopenia syndrome virus; experiment: Antiviral activity against SFTSV infected in mouse harboring IFNAR1tm1Agt assessed as log reduction in viral copy number in spleen at 10 mg/kg, po qd treated for 7 days by RT-qPCR analysis; settings: time 7 day
[10] = test system: Severe fever with thrombocytopenia syndrome virus; experiment: Antiviral activity against SFTSV infected in mouse harboring IFNAR1tm1Agt assessed as log reduction in viral copy number in liver at 5 mg/kg, po qd treated for 7 days by RT-qPCR analysis; settings: time 7 day
[11] = test system: Severe fever with thrombocytopenia syndrome virus; experiment: Antiviral activity against SFTSV infected in mouse harboring IFNAR1tm1Agt assessed as log reduction in viral copy number in kidney at 10 mg/kg, po qd treated for 7 days by RT-qPCR analysis; settings: time 7 day
[12] = test system: Severe fever with thrombocytopenia syndrome virus; experiment: Antiviral activity against SFTSV infected in mouse harboring IFNAR1tm1Agt assessed as log reduction in viral copy number in liver at 2.5 mg/kg, po qd treated for 7 days by RT-qPCR analysis; settings: time 7 day
[13] = test system: Severe fever with thrombocytopenia syndrome virus; experiment: Antiviral activity against SFTSV infected in mouse harboring IFNAR1tm1Agt assessed as log reduction in viral copy number in heart at 2.5 mg/kg, po qd treated for 7 days by RT-qPCR analysis; settings: time 7 day
[14] = test system: Severe fever with thrombocytopenia syndrome virus; experiment: Antiviral activity against SFTSV infected in mouse harboring IFNAR1tm1Agt assessed as log reduction in viral copy number in kidney at 5 mg/kg, po qd treated for 7 days by RT-qPCR analysis; settings: time 7 day
[15] = test system: Severe fever with thrombocytopenia syndrome virus; experiment: Antiviral activity against SFTSV infected in mouse harboring IFNAR1tm1Agt assessed as log reduction in viral copy number in kidney at 2.5 mg/kg, po qd treated for 7 days by RT-qPCR analysis; settings: time 7 day
[16] = test system: Severe fever with thrombocytopenia syndrome virus; experiment: Antiviral activity against SFTSV infected in mouse harboring IFNAR1tm1Agt assessed as log reduction in viral copy number in heart at 10 mg/kg, po qd treated for 7 days by RT-qPCR analysis; settings: time 7 day
[17] = test system: Severe fever with thrombocytopenia syndrome virus; experiment: In vivo antiviral activity against SFTSV infected in mouse harboring IFNAR1tm1Agt assessed as animal survival rate at 5 to 100 mg/kg, po qd treated for 7 days relative to control; settings: dose 5-100 mg/kg, time 7 day
[18] = test system: Severe fever with thrombocytopenia syndrome virus; experiment: Antiviral activity against SFTSV infected in mouse harboring IFNAR1tm1Agt assessed as log reduction in viral copy number in spleen at 2.5 mg/kg, po qd treated for 7 days by RT-qPCR analysis; settings: time 7 day

SMILES: CC(C)C(=O)OC[C@@]1(F)O[C@@H](n2ccc(=O)n(COC(=O)c3cccnc3)c2=O)[C@H](OC(=O)C(C)C)[C@@H]1OC(=O)C(C)C
- log(activity) [1]: 2.4
- Ratio CC50/EC50 [2]: > 667
- log(activity) [3]: 2.18
- log(activity) [4]: 4.8
- log(activity) [5]: 3.66
- log(activity) [6]: 1.85
- Survival [7]: 16.7%
- log(activity) [8]: 1.33
- log(activity) [9]: 2.2
- log(activity) [10]: 3.29
- log(activity) [11]: 3.11
- log(activity) [12]: 1.92
- log(activity) [13]: 1.41
- log(activity) [14]: 2.3
- log(activity) [15]: 1.45
- log(activity) [16]: 3.29
- Survival [17]: 100%
- log(activity) [18]: 0.94

From ChEMBL document CHEMBL6177980 (J Med Chem, 2025)
